Pooled drug test results. Numbers come from NIAID ChemDB, via PubChem.

Shared fields: tests on isolated targets

Percent inhibition refers to the dose given; in toxicity tests it is the harm to the cells. An empty or dashed field is not shown. Lines come from different laboratories, so protocols vary. ICn is the concentration giving n% inhibition.

SMILES,endpoint,strain or isolate,organism,dose,target,method,value
CCC(CC)Nc1cc(C(=O)O)ccc1N1C(=O)CCC1(CO)CCO,IC50,Subtype N2,Influenza A virus,-,Neuraminidase,-,59 µM
CC(C)(C)NC(=O)NC(=S)NC(=O)C1C(/C=C(/Cl)C(F)(F)F)C1(C)C,IC50,H1N1,Influenza A virus,-,Neuraminidase,-,12.2 µM
COCON1C(=O)[C@H]([C@H](OS(C)(=O)=O)c2ccc(OC)cc2)N(Cc2ccc(OC)cc2)[C@@H](Cc2ccccc2)C1=O,IC50,-,Influenza A virus,-,Transcriptase,-,>200 µM
CC(C)(C)NC(=O)NC(=S)NC(=O)c1ccc(-c2ccc([N+](=O)[O-])cc2)o1,IC50,H1N1,Influenza A virus,-,Neuraminidase,-,4.2 µM
COCON1C(=O)[C@H]([C@H](O)c2ccccc2)N(Cc2ccc(OC)cc2)[C@@H](CC(C)C)C1=O,IC50,-,Influenza A virus,-,Transcriptase,-,>200 µM
CC(C)(C)NC(=O)NC(=S)NC(=O)C1C(C=C(Cl)Cl)C1(C)C,IC50,H1N1,Influenza A virus,-,Neuraminidase,-,0.05 µM
COCON1C(=O)[C@H]([C@H](O)c2ccccc2F)N(Cc2ccc(OC)cc2)[C@@H](CC(C)C)C1=O,IC50,-,Influenza A virus,-,Transcriptase,-,>200 µM
CC(C)(C)NC(=O)NC(=S)NC(=O)c1ccc(-c2ccccc2Cl)o1,IC50,H1N1,Influenza A virus,-,Neuraminidase,-,0.43 µM
CC[C@@H](C)OC1C=C(C(=O)O)C[C@H](N)[C@H]1NC(C)=O,IC50,-,Influenza A virus,-,Neuraminidase,-,0.0007 µM
CCC(CC)Nc1cc(C(=O)O)ccc1N1C(=O)CCC1(CO)CO,IC50,B/LEE,Influenza B virus,-,Neuraminidase,-,271 µM
COCON1C(=O)/C(=C/c2ccc(OC)cc2)N(Cc2ccc(OC)cc2)[C@@H](CC(C)C)C1=O,IC50,-,Influenza A virus,-,Transcriptase,-,>200 µM
CC[C@H](CCc1ccccc1)OC1C=C(C(=O)O)C[C@H](N)[C@H]1NC(C)=O,IC50,-,Influenza A virus,-,Neuraminidase,-,0.00009 µM
N[C@H]1C=C(C(=O)O)O[C@@H]([C@H](O)[C@H](O)CO)C1,IC50,AICHI,Influenza A virus,-,Influenza A sialidase,-,>500 µM
COCON1C(=O)[C@H]([C@H](OS(C)(=O)=O)c2cccc(F)c2)N(Cc2ccc(OC)cc2)[C@@H](CC(C)C)C1=O,IC50,-,Influenza A virus,-,Transcriptase,-,>200 µM
CCC(CC)[C@H](NC(C)=O)[C@@H]1[C@H](O)[C@@H](C(=O)O)C[C@H]1N=C(N)N,IC50,WILD TYPE (292),Influenza A virus,-,Influenza virus neuraminidase,-,0.0011 µM
Cc1cc(=O)[nH]c(NC(=S)NC(=O)c2ccc(-c3ccc([N+](=O)[O-])cc3)o2)n1,IC50,H1N1,Influenza A virus,-,Neuraminidase,-,0.85 µM
COCON1C(=O)[C@H]([C@@H](O)C(C)C)N(Cc2ccc(OC)cc2)[C@@H](Cc2ccccc2)C1=O,IC50,-,Influenza A virus,-,Transcriptase,-,>200 µM
CC(=O)N[C@H]1[C@H]([C@H](O)[C@H](O)CO)OC(C(=O)O)=C[C@@H]1N,IC50,Influenza A/Mississippi/1/85 (H3N2),Influenza A virus,-,Sialidase,-,0.23 µM
CCCCCCOC1C=C(C(=O)O)C[C@H](N)[C@H]1NC(C)=O,IC50,-,Influenza A virus,-,Neuraminidase,-,0.29 µM
COCON1C(=O)[C@H]([C@H](OS(C)(=O)=O)c2ccc(OC)cc2)N(Cc2ccc(OC)cc2)[C@@H](CC(C)C)C1=O,IC50,-,Influenza A virus,-,Transcriptase,-,>200 µM
CCCCCCCCOC1C=C(C(=O)O)C[C@H](N)[C@H]1NC(C)=O,IC50,-,Influenza A virus,-,Neuraminidase,-,0.75 µM
CC(=O)Nc1c(O)cc(C(=O)O)cc1[N+](=O)[O-],IC50,Memphis/3/89,Influenza B virus,-,Neuraminidase,-,750 µM
COCON1C(=O)/C(=C/c2ccc(OC)cc2)N(Cc2ccc(OC)cc2)[C@@H](Cc2ccccc2)C1=O,IC50,-,Influenza A virus,-,Transcriptase,-,>200 µM
CC(N)C12CC3CC(CC(C3)C1)C2,inhibition,A/PR/1/74 rimantadine-susceptible,Influenza A virus,50 µg/mL,Virion transcriptase,nucleotide incorporation,19%

The first 3 rows once more:

SMILES,endpoint,strain or isolate,organism,dose,target,method,value
CCC(CC)Nc1cc(C(=O)O)ccc1N1C(=O)CCC1(CO)CCO,IC50,Subtype N2,Influenza A virus,-,Neuraminidase,-,59 µM
CC(C)(C)NC(=O)NC(=S)NC(=O)C1C(/C=C(/Cl)C(F)(F)F)C1(C)C,IC50,H1N1,Influenza A virus,-,Neuraminidase,-,12.2 µM
COCON1C(=O)[C@H]([C@H](OS(C)(=O)=O)c2ccc(OC)cc2)N(Cc2ccc(OC)cc2)[C@@H](Cc2ccccc2)C1=O,IC50,-,Influenza A virus,-,Transcriptase,-,>200 µM